Experimental data: PubChem BioAssay AID624099 (ICCB-Longwood, 2012)
The whole screen tested about 21,000 reagents; this is a part drawn at random. In the full data, 497 (2.4%) got an active call. 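Higher z means weaker E2 silencing; only reporter increases were scored, and knock-downs that hurt cell survival may mask genuine repressor factors.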 No sequences are given here.

Assay: 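Knock-downs relieving repression by E2 of an HPV18 LCR luciferase reporter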 (primary screen)
System: human C33A cervical carcinoma cells (HPV-negative) stably expressing BPV1 E2 and an HPV18 LCR luciferase reporter
Reagents: siRNA pool against human genes, 40 nM
Timing: 72 h
Read-out: 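Per-well luciferase luminescence, z-scored on each plate against the plate mean and SD with control wells left out, then averaged across three replicate plates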
Scale: mean z-score and z-score: higher = stronger reporter signal, weaker E2 silencing
Active means: 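Hit if mean z-score reaches 2 and two or more of three replicate z-scores also reach 2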

What did the screen give for SDHAF2 (succinate dehydrogenase complex assembly factor 2)?
mean z-score: 0.6; z-score, replicate A: 0.34; z-score, replicate B: 0.55; z-score, replicate C: 0.9; Call: inactive

With XKRY (XK related, Y-linked (pseudogene)), how do the results read?
mean z-score: -1.09; z-score, replicate A: -1.32; z-score, replicate B: -1.21; z-score, replicate C: -0.74; Call: inactive

What did the screen give for LOC388248 (Rho GTPase activating protein 23 pseudogene)?
mean z-score: -0.47; z-score, replicate A: -0.54; z-score, replicate B: -0.62; z-score, replicate C: -0.26; Call: inactive

With EMC9 (ER membrane protein complex subunit 9), what does the deposit list?
mean z-score: 0.06; z-score, replicate A: -0.45; z-score, replicate B: 0.64; z-score, replicate C: 0.01; Call: inactive

With DAZAP1 (DAZ associated protein 1), what was measured?
mean z-score: 1.28; z-score, replicate A: 1.39; z-score, replicate B: 1.28; z-score, replicate C: 1.16; Call: inactive

For TMCO6 (transmembrane and coiled-coil domains 6), what was measured?
mean z-score: -0.67; z-score, replicate A: -0.45; z-score, replicate B: -0.85; z-score, replicate C: -0.7; Call: inactive

For GLS (glutaminase), how do the results read?
mean z-score: -0.28; z-score, replicate A: -0.41; z-score, replicate B: -0.24; z-score, replicate C: -0.2; Call: inactive

How did the screen score LOC347424 (retired record)?
mean z-score: 1.18; z-score, replicate A: 1.48; z-score, replicate B: 0.84; z-score, replicate C: 1.23; Call: inactive

With NEIL3 (nei like DNA glycosylase 3), how do the results read?
mean z-score: -0.76; z-score, replicate A: -0.87; z-score, replicate B: -1.16; z-score, replicate C: -0.26; Call: inactive

What did the screen give for LOC392559 (retired record)?
mean z-score: -0.6; z-score, replicate A: -0.25; z-score, replicate B: -0.78; z-score, replicate C: -0.76; Call: inactive

How did the screen score CITED4 (Cbp/p300 interacting transactivator with ED-rich tail 4)?
mean z-score: -0.7; z-score, replicate A: -0.8; z-score, replicate B: -0.58; z-score, replicate C: -0.73; Call: inactive

What is on record for INPP5J (inositol polyphosphate-5-phosphatase J)?
mean z-score: 1.46; z-score, replicate A: 1.53; z-score, replicate B: 1.55; z-score, replicate C: 1.31; Call: inactive

What did the screen give for RPL31 (ribosomal protein L31)?
mean z-score: -1.94; z-score, replicate A: -1.95; z-score, replicate B: -2.01; z-score, replicate C: -1.86; Call: inactive

What is on record for GFRAL (GDNF family receptor alpha like)?
mean z-score: -2.13; z-score, replicate A: -2.67; z-score, replicate B: -1.42; z-score, replicate C: -2.31; Call: inactive

With RMC1 (regulator of MON1-CCZ1), what does the deposit list?
mean z-score: -1.67; z-score, replicate A: -1.89; z-score, replicate B: -1.71; z-score, replicate C: -1.42; Call: inactive

With IRF8 (interferon regulatory factor 8), what was measured?
mean z-score: -0.05; z-score, replicate A: 0.22; z-score, replicate B: -0.1; z-score, replicate C: -0.27; Call: inactive

What is on record for PSPHP1 (phosphoserine phosphatase pseudogene 1)?
mean z-score: -0.53; z-score, replicate A: -0.75; z-score, replicate B: -0.42; z-score, replicate C: -0.43; Call: inactive

An excerpt from above, reduced to “z-score, replicate A”:
TMCO6 (transmembrane and coiled-coil domains 6): -0.45
GLS (glutaminase): -0.41

Further results follow:
How did the screen score CSNK2B (casein kinase 2 beta)?
mean z-score: 1.95; z-score, replicate A: 2.04; z-score, replicate B: 2.48; z-score, replicate C: 1.33; Call: inactive

How did the screen score ZNF837 (zinc finger protein 837)?
mean z-score: 1.01; z-score, replicate A: 1.11; z-score, replicate B: 1.02; z-score, replicate C: 0.9; Call: inactive

Which result is listed for COTL1 (coactosin like F-actin binding protein 1)?
mean z-score: 0.66; z-score, replicate A: 0.45; z-score, replicate B: 0.89; z-score, replicate C: 0.62; Call: inactive

With TM6SF2 (transmembrane 6 superfamily member 2), how do the results read?
mean z-score: 1.13; z-score, replicate A: 0.99; z-score, replicate B: 0.86; z-score, replicate C: 1.54; Call: inactive

What is on record for PBX3 (PBX homeobox 3)?
mean z-score: 0.68; z-score, replicate A: 0.62; z-score, replicate B: 0.81; z-score, replicate C: 0.63; Call: inactive

How did the screen score CREM (cAMP responsive element modulator)?
mean z-score: -0.76; z-score, replicate A: -0.75; z-score, replicate B: -0.78; z-score, replicate C: -0.73; Call: inactive

Which result is listed for SPMIP8 (sperm microtubule inner protein 8)?
mean z-score: 0.49; z-score, replicate A: 0.27; z-score, replicate B: 0.53; z-score, replicate C: 0.67; Call: inactive

What did the screen give for RFXANK (regulatory factor X associated ankyrin containing protein)?
mean z-score: 0.59; z-score, replicate A: 0.42; z-score, replicate B: 0.5; z-score, replicate C: 0.86; Call: inactive

What is on record for RAB25 (RAB25, member RAS oncogene family)?
mean z-score: 1.47; z-score, replicate A: 1.56; z-score, replicate B: 1.42; z-score, replicate C: 1.43; Call: inactive

What is on record for CDKN1B (cyclin dependent kinase inhibitor 1B)?
mean z-score: -0.09; z-score, replicate A: 0.21; z-score, replicate B: 0.07; z-score, replicate C: -0.54; Call: inactive
